The text below walks through data of patent US11420959B2, “DACOS type NNRTIS amino acid ester derivative, preparation method thereof, pharmaceutical composition, and application thereof” (YUNNAN UNIVERSITY, priority 2018, dated 2022).

Structures are written as SMILES. The index is printed as in the source, without its formula. Some results are limits rather than exact numbers.

The subject of the series is HIV-1IIIB. The series can be described thus: Syncytium inhibition experiment, C8166 cells infected with HIV-1IIIB. Format: cell-based. The note with it: selectivity index, HIV-1IIIB in C8166 cells. On the procedure:
The specific method was described below.
Syncytium inhibition experiment: 100 μL of C8166 cell suspension (4×10^5/mL) was inoculated into each well of a 96-well cell culture plate containing 5-fold serial dilutions of the compounds, followed by addition of HIV-1IIIB diluted supernatant (MOI=0.04). Three replicate wells were set for each serial concentration. […] The cells were incubated at 37° C. in a 5% CO2 incubator for three days. The number of the syncytia was counted in five non-overlapping fields of view by using an inverted microscope (100×). […] Calculation formula: cytopathic inhibition rate (%)=(1−number of syncytia in experimental wells/number of syncytia in control well)×100%.
In turn, `CCc1c(CC2CCCCC2)nc(SCC(=O)c2ccc(OC(=O)CN)cc2)[nH]c1=O` [Compound I-1] had an SI of 33686.
Then `CCc1c(CC2CCCCC2)nc(SCC(=O)c2ccc(OC(=O)[C@H](N)[C@H](C)CC)cc2)[nH]c1=O` [Compound I-3], with 31375; and `CCc1c(CC2CCCCC2)nc(SCC(=O)c2ccc(OC(=O)C3CCCN3)cc2)[nH]c1=O` (stereo not shown) [Compound I-4], with 9233.
Then `CCc1c(CC2CCCCC2)nc(SCC(=O)c2ccc(OC(=O)C(N)Cc3c[nH]c4ccccc34)cc2)[nH]c1=O` (stereo not shown) [Compound I-5], with 23911.
In turn, `CCc1c(CC2CCCCC2)nc(SCC(=O)c2ccc(OC(=O)[C@@H](C)N)cc2)[nH]c1=O` [Compound I-6] gave an SI of 25390.
In the case of `CCc1c(CC2CCCCC2)nc(SCC(=O)c2ccc(OC(=O)C(N)Cc3ccccc3)cc2)[nH]c1=O` (stereo not shown) [Compound I-7] it was 11002; in that of `CCc1c(CC2CCCCC2)nc(SCC(=O)c2ccc(OC(=O)C(N)CCSC)cc2)[nH]c1=O` (stereo not shown) [Compound I-8], 30582; in that of `CCc1c(CC2CCCCC2)nc(SCC(=O)c2ccc(OC(=O)C(N)CCCCN)cc2)[nH]c1=O` (stereo not shown) [Compound I-9], 19235.
In the case of `CCc1c(CC2CCCCC2)nc(SCC(=O)c2ccc(OC(=O)C(N)Cc3cnc[nH]3)cc2)[nH]c1=O` (stereo not shown) [Compound I-10] it was 15445; in that of `CCc1c(CC2CCCCC2)nc(SCC(=O)c2ccc(OC(=O)C(N)CCC(N)=O)cc2)[nH]c1=O` (stereo not shown) [Compound I-11], 23787; in that of `CCc1c(CC2CCCCC2)nc(SCC(=O)c2ccc(OC(=O)C(N)CC(N)=O)cc2)[nH]c1=O` (stereo not shown) [Compound I-12], 30183.
Then `CC(C)c1c(CC2CCCCC2)nc(SCC(=O)c2ccc(OC(=O)C3CCCN3)cc2)[nH]c1=O` (stereo not shown) [Compound I-15], with 7963.9; and `CC(C)c1c(CC2CCCCC2)nc(SCC(=O)c2ccc(OC(=O)C(N)Cc3c[nH]c4ccccc34)cc2)[nH]c1=O` (stereo not shown) [Compound I-16], with 31257.
For the compound `CC(C)c1c(CC2CCCCC2)nc(SCC(=O)c2ccc(OC(=O)C(N)C(C)C)cc2)[nH]c1=O` (stereo not shown) [Compound I-19], the SI was determined as 37677.
Then `CC(C)c1c(CC2CCCCC2)nc(SCC(=O)c2ccc(OC(=O)C(N)Cc3ccccc3)cc2)[nH]c1=O` (stereo not shown) [Compound I-21], with 31050; and `Cc1c(CC2CCCCC2)nc(SCC(=O)c2ccc(OC(=O)C(N)Cc3ccccc3)cc2)[nH]c1=O` (stereo not shown) [Compound I-22], with 9217.3; and `Cc1c(CC2CCCCC2)nc(SCC(=O)c2ccc(OC(=O)CN)cc2)[nH]c1=O` [Compound I-23], with above 12656.
In the case of `CSCCC(N)C(=O)Oc1ccc(C(=O)CSc2nc(CC3CCCCC3)c(C)c(=O)[nH]2)cc1` (stereo not shown) [Compound I-24] it was 19616.
In the case of `Cc1ccnc2c1NC(=O)c1cccnc1N2C1CC1` [NVP, Nevirapine, reference compound], the SI is 38777.
